Anti-infective test results gathered from many reports (values: NIAID ChemDB through PubChem).

All rows: enzyme or target tests; agent: HIV-1; protein: gp120; measure: IC50

An empty or dashed field is not shown. Rows are shuffled and stem from different studies. ICn is the concentration giving n% inhibition.

O=C(O[C@@H]1Cc2c(O)cc(O)cc2O[C@@H]1c1cc(O)c(O)c(O)c1)c1cc(O)c(O)c(O)c1 ; read by: fluorescence ; value: >50 µM
CC[C@H](C)/C=C(C)/C=C/C1=CC2=C(Cl)C(=O)[C@](C)(OC(C)=O)C(=O)C2=CO1 ; read by: ELISA ; value: >250 µM
O=S(=O)(O)c1cc(S(=O)(=O)O)c2c(Nc3ccnc4cc(Cl)ccc34)ccc(S(=O)(=O)O)c2c1 ; read by: binding ; value: >1000 µg/mL
O=c1c(O[C@@H]2O[C@H](CO)[C@@H](O)[C@H](O)[C@H]2O)c(-c2ccc(O)cc2)oc2cc(O)cc(O)c12 ; read by: binding ; value: ~70 µg/mL
CC[C@H](C)C=C(C)/C=C/C1=CC2=C(Cl)C(=O)[C@]3(C)OC(=O)[C@@H](C(C)=O)[C@@H]3C2=CO1 ; read by: ELISA ; value: 6.6 µM
CC[C@H](C)/C=C(C)/C=C/C1=CC2=C(Cl)C(=O)[C@](C)(OC(C)=O)C(=O)C2=CO1 ; value: >100 µg/mL
O=C(C=Cc1ccc(O)c(O)c1)O[C@@H]1C[C@](O)(C(=O)O)C[C@@H](O)[C@H]1O ; read by: ELISA ; value: <400 µg/mL
CC[C@H](C)/C=C(C)/C=C/C1=CC2=C(Cl)C(=O)[C@](C)(O)[C@H](CC(C)=O)C2=CO1 ; read by: ELISA ; value: 3.9 µM
O=C(/C=C/c1ccc(O)c(O)c1)O[C@@H]1C[C@](OC(=O)/C=C/c2ccc(O)c(O)c2)(C(=O)O)C[C@@H](O)[C@H]1O ; strain or isolate: LAI ; read by: binding ; value: >83 µM
COC(=O)C(=O)N1CCC[C@H]1/C=C\[C@@H](Cc1ccccc1)C(=O)OCc1ccccc1 ; read by: ELISA ; value: >1000 µg/mL
O=C1c2c(O)cc(O)c(O)c2O[C@H](c2ccc(O)cc2)[C@H]1O ; read by: ELISA ; value: >50 µg/mL
CC[C@H](C)C=C(C)/C=C/C1=CC2=C(Cl)C(=O)[C@](C)(O)[C@H](CC(C)=O)C2=CO1 ; read by: ELISA ; value: 3.9 µM
COC(=O)C(=O)OC1(C(=O)O)C[C@@H](OC(=O)/C=C/c2ccc(O)c(O)c2)C(O)[C@H](OC(=O)/C=C/c2ccc(O)c(O)c2)C1 ; strain or isolate: LAI ; read by: binding ; value: >97 µM
CC[C@H](C)/C=C(C)/C=C/C1=CC2=C(Cl)C3=C(C(C)=O)C(=O)O[C@@]3(C)C(=O)C2=CO1 ; read by: ELISA ; value: >240 µM
CC[C@H](C)/C=C(C)/C=C/C1=CC2=C(Cl)C(=O)[C@@]3(C)OC(=O)C(C(C)=O)=C3C2=CO1 ; value: 13 µg/mL
O=C1C[C@@H](c2ccc(O)cc2)Oc2cc(O[C@@H]3C[C@@H](O)[C@H](O)[C@@H](CO)O3)cc(O)c21 ; read by: ELISA ; value: <80 µg/mL
CC(C)C[C@H](NC(=O)[C@H](Cc1ccccc1)N1NC(=O)[C@H]([C@@H](N)CO)CCC(=O)N[C@@H](CO)C1=O)C(=O)N[C@H](C(=O)NCc1ccccc1)[C@@H](C)O ; read by: ELISA ; value: >100 µM
CC[C@H](C)/C=C/C1=CC2=C(Cl)C(=O)[C@@]3(C)OC(O)(C(C)C(C)O)C(C(C)=O)C3C2=CO1 ; read by: ELISA ; value: 140 µM
O=C1c2c(O)cc(O[C@@H]3C[C@@H](O)[C@H](O)[C@@H](CO)O3)cc2O[C@H](c2ccc(O)cc2)[C@H]1O ; read by: ELISA ; value: >250 µg/mL
CCCCCCCCCCCCCCCCCC(=O)N(CCCCCCCCCCC(=O)O)CC(O)C(O)C(OC1OC(CO)C(O)C(O)C1O)C(O)CO ; read by: radiometric ; value: 1.2 µM
O=C1c2c(O)cc(O[C@@H]3C[C@@H](O)[C@H](O)[C@@H](CO)O3)cc2O[C@H](c2ccc(O)c(O)c2)[C@H]1O ; read by: ELISA ; value: >50 µg/mL
Cc1cn([C@H]2C[C@H](N=[N+]=[N-])[C@@H](CO)O2)c(=O)[nH]c1=O ; read by: binding ; value: >100 µg/mL

For reference, 2 entries again:

structure | strain or isolate | read by | value
O=c1c(O[C@@H]2O[C@H](CO)[C@@H](O)[C@H](O)[C@H]2O)c(-c2ccc(O)cc2)oc2cc(O)cc(O)c12 |  | binding | ~70 µg/mL
CCCCCCCCCCCCCCCCCC(=O)N(CCCCCCCCCCC(=O)O)CC(O)C(O)C(OC1OC(CO)C(O)C(O)C1O)C(O)CO |  | radiometric | 1.2 µM